Compound potency records, mixed from different reports. Data source: NIAID ChemDB in PubChem.

Shared fields: whole-cell or culture tests

MIC50, MIC90 and the like: level of inhibition, or share of isolates inhibited. Inhibition is in % at the dose shown (toxicity tests: loss of growth or viability). a–b is a range or a potency band. ECn: concentration that inhibits the pathogen or its effect by n%. Neighbouring rows are from separate reports.

CC[C@H]1OC(=O)[C@H](C)[C@@H](OC(=O)CCCCCc2ccccc2)[C@H](C)[C@@H](O[C@@H]2O[C@H](C)C[C@H](N(C)C)[C@H]2O)C(C)(O)C[C@@H](C)/C(=N\OCCCOc2ccccc2)[C@H](C)[C@@H](O)[C@]1(C)O ; organism: Mycobacterium avium complex ; strain or isolate: 20096 (clarithromycin-resistant) ; measure: MIC ; value: 25 µg/mL
CCCCCCCCCCCCCCCCCCCCCCOCC(C)(COCCCCCCCCCCCCCCCCCCCCCC)CO[C@]1(C(=O)O)C[C@H](OS(=O)(=O)O)[C@@H](NC(C)=O)[C@H]([C@H](OS(=O)(=O)O)[C@@H](COS(=O)(=O)O)OS(=O)(=O)O)O1 ; organism: Rotavirus ; strain or isolate: DS-1 (serotype 2) ; cells: MA-104 ; read by: plaque count ; measure: EC50 ; value: 4.7 µg/mL
CC(C)(C)c1ccc(CSc2ncnc3c2ncn3[C@@H]2O[C@H](CO)[C@@H](O)[C@H]2O)cc1 ; organism: Toxoplasma gondii ; strain or isolate: RH (WILD TYPE) ; measure: inhibition ; tested at: 50 µM ; value: 87.8%
COc1ccc(-n2c(C(=O)NCc3ncccn3)c3n(c2=O)CCN(C(=O)c2ccc(Br)c(Cl)c2)C3)cc1 ; organism: Hepatitis B virus ; cells: HepG2.117 ; read by: PCR ; measure: EC50 ; value: >5 µM
CC(C)(O)c1cn(-c2ccc3ccccc3c2)nn1 ; organism: Candida parapsilosis ; strain or isolate: URM 4261 ; read by: broth dilution ; measure: inhibition ; tested at: 2048 µg/mL ; value: 0%
O=C(NC(=O)c1ccc(Cl)cc1Cl)c1ccccc1O ; organism: Toxoplasma gondii ; cells: Human foreskin fibroblasts ; measure: MIC90 ; value: >1 µM
O=S(=O)(O)c1cc(O)c2c(O)cc(S(=O)(=O)O)cc2c1 ; organism: Adenovirus ; strain or isolate: TYPE 3 ; cells: Human amnion AV3 cells ; read by: cytopathic effect ; measure: inhibition ; tested at: 10 µg/mL ; value: 40%
CCCC(CCC)C(NC(C)=O)C1C(N=C(N)N)CC(C(=O)O)C1O ; organism: Influenza A virus ; strain or isolate: H1N1 A/Beijing/252/95 ; cells: MDCK ; measure: EC50 ; value: 0.18 µM
CCCNNC(=O)O[C@H]1[C@H](O[C@@H]2[C@@H](C)[C@H](O[C@H]3C[C@@](C)(OC)[C@@H](OC(C)=O)[C@H](C)O3)[C@@H](C)C(=O)O[C@H](CC)[C@@](C)(O)[C@H](O)[C@@H](C)/C(=N/OCCCC3CCCCC3)[C@H](C)CC2(C)O)O[C@H](C)C[C@@H]1N(C)C ; organism: Mycobacterium avium complex ; strain or isolate: 20096 (clarithromycin-resistant) ; measure: MIC ; value: 0.78 µg/mL
COC(=O)N[C@H](C(=O)N1CCCC1c1ncc(-c2ccc(-c3ccc(-c4cnc([C@@H]5CC(C)CN5C(=O)[C@@H](NC(=O)CO)C(C)C)[nH]4)cc3)cc2)[nH]1)C(C)C ; organism: Hepatitis C virus ; strain or isolate: 1a ; mutations: Q30R ; cells: Lunet ; read by: luciferase ; measure: EC50 ; value: 0.000794 µM
O=c1oc2ccc(Cl)cc2c(=S)n1-c1ccc(C(F)(F)F)cc1 ; organism: Mycobacterium kansasii ; strain or isolate: 6509/96 ; conditions: 14 d ; measure: MIC ; value: 16 µM
CCc1ccc(C(=O)NS(=O)(=O)c2ccccc2O)cc1 ; organism: Toxoplasma gondii ; cells: Human foreskin fibroblasts ; measure: MIC90 ; value: >0.25 µM
C=CCc1ccc(OC)c(OC)c1 ; organism: Candida glabrata ; strain or isolate: 2622 ; read by: turbidity ; measure: MIC90 ; value: 350 µg/mL
Cn1cc(C(=O)NCc2ccc(Cl)cc2)c(=O)c2cc(CN3CCOCC3)ccc21 ; organism: Varicella zoster virus ; strain or isolate: NA varicella isolate ; cells: HFF ; read by: plaque count ; measure: inhibition ; tested at: 3.6 µM ; value: 90%
Cc1ccc2oc(=O)n(-c3ccccc3)c(=S)c2c1 ; organism: Mycobacterium kansasii ; strain or isolate: 6509/96 ; conditions: 21 d ; measure: MIC ; value: 4 µM
Nc1ncnc2c1ncn2[C@@H]1C[C@H](NC=O)[C@@H](O)[C@H]1O ; organism: Punta Toro virus ; cells: HFF ; measure: EC50 ; value: >100 µg/mL
CCCCCCCCC(=O)O[C@H]1[C@H](C)[C@@H](O[C@@H]2O[C@H](C)C[C@H](N(C)C)[C@H]2O)C(C)(O)C[C@@H](C)/C(=N\OCCCOc2ccccc2)[C@H](C)[C@@H](O)[C@](C)(O)[C@@H](CC)OC(=O)[C@@H]1C ; organism: Mycobacterium avium complex ; strain or isolate: 20096 (clarithromycin-resistant) ; measure: MIC ; value: 12.5 µg/mL
C[C@@H](NC(=O)c1c2n(c(=O)n1-c1ccc(OC3CC3)cc1)CCN(C(=O)c1ccc(Br)c(Cl)c1)C2)c1ccc(OC(C)(C)C(N)=O)cc1F ; organism: Hepatitis B virus ; cells: HepG2.117 ; read by: PCR ; measure: EC50 ; value: 0.1–0.5 µM
Cc1ccc(-n2c(=O)oc3ccc(C)cc3c2=S)cc1 ; organism: Mycobacterium kansasii ; strain or isolate: My 235/80 ; conditions: 14 d ; measure: MIC ; value: 2 µM
CCCC(CCC)C(NC(C)=O)C1CC(C(=O)O)CC1N=C(N)N ; organism: Influenza A virus ; strain or isolate: Influenza A/Beijing/32/92 (H3N2) ; cells: MDCK ; measure: EC50 ; value: 0.05 µM
CC[C@H]1OC(=O)[C@H](C)[C@@H](OC2C[C@@](C)(OC)[C@@H](O)[C@H](C)O2)[C@H](C)[C@@H](O[C@@H]2O[C@H](C)C[C@H](N(C)C)[C@H]2O)C(C)(O)C[C@@H](C)/C(=N\OCc2ccccc2)[C@H](C)[C@@H](O)[C@]1(C)O ; organism: Mycobacterium avium complex ; strain or isolate: 20092 (clarithromycin-resistant) ; measure: MIC ; value: >50 µg/mL
Nc1ccc2c(O)cc(S(=O)(=O)[O-])cc2c1S(=O)(=O)[O-] ; organism: Herpes simplex virus ; cells: Human amnion AV3 cells ; read by: cytopathic effect ; measure: inhibition ; tested at: 10 µg/mL ; value: 0%
CCc1ccc(C(=O)Nc2cn(C(C)=O)c3ccccc23)cc1 ; organism: Toxoplasma gondii ; cells: Human foreskin fibroblasts ; measure: MIC50 ; value: >0.125 µM
CC(C)(O)c1cn(-c2ccccc2)nn1 ; organism: Candida parapsilosis ; strain or isolate: URM 4970 ; read by: broth dilution ; measure: inhibition ; tested at: 2048 µg/mL ; value: 0%
NC(=S)Nc1cccc(OCCCCCCOc2ccccc2)c1 ; organism: Hepatitis C virus ; cells: Ava5-EG(delta4AB)SEAP ; read by: reporter gene / fluorescence ; measure: EC50 ; value: 0.001–1 µM
CCC(CC)[C@H](NC(C)=O)[C@@H]1[C@H](O)[C@@H](C(=O)O)C[C@H]1N=C(N)N ; organism: Influenza B virus ; strain or isolate: B/Beijing/184/93 ; cells: MDCK ; measure: EC50 ; value: 0.06 µM
Cc1ccc(-n2cc(C(C)(C)O)nn2)cc1C ; organism: Candida parapsilosis ; strain or isolate: URM 4889 ; read by: broth dilution ; measure: inhibition ; tested at: 2048 µg/mL ; value: 0%
CCCCCCCCCCCCO/N=C1\[C@H](C)CC(C)(O)[C@H](O[C@@H]2O[C@H](C)C[C@H](N(C)C)[C@H]2O)[C@@H](C)[C@H](O[C@H]2C[C@@](C)(OC)[C@@H](OC(C)=O)[C@H](C)O2)[C@@H](C)C(=O)O[C@H](CC)[C@@](C)(O)[C@H](O)[C@H]1C ; organism: Mycobacterium avium complex ; strain or isolate: 20039 (clarithromycin-susceptible) ; measure: MIC ; value: 3.13 µg/mL
CCCC(=O)Nc1ccc2c(c1)Cc1cc(NC(N)=S)ccc1-2 ; organism: Hepatitis C virus ; cells: Ava5-EG(delta4AB)SEAP ; read by: reporter gene / fluorescence ; measure: EC50 ; value: 0.001–1 µM
O=c1[nH]cnc2c1ncn2[C@@H]1O[C@H](CO)[C@@H](O)[C@H]1O ; organism: Pneumocystis carinii ; measure: inhibition ; tested at: 1000 µM ; value: 0%
NC(=S)Nc1cccc(OCCCCCOc2ccc(N3CCOCC3)cc2)c1 ; organism: Hepatitis C virus ; cells: Ava5-EG(delta4AB)SEAP ; read by: reporter gene / fluorescence ; measure: EC50 ; value: 0.001–1 µM
CC[C@H]1OC(=O)[C@H](C)[C@@H](OC(=O)C(C)C)[C@H](C)[C@@H](O[C@@H]2O[C@H](C)C[C@H](N(C)C)[C@H]2O)C(C)(O)C[C@@H](C)/C(=N\OCCCOc2ccccc2)[C@H](C)[C@@H](O)[C@]1(C)O ; organism: Mycobacterium avium complex ; strain or isolate: 20096 (clarithromycin-resistant) ; measure: MIC ; value: 12.5 µg/mL
O=c1ccn([C@@H]2O[C@H](CO)[C@@H](O)[C@H]2F)c(=O)[nH]1 ; organism: Bovine viral diarrhea virus ; cells: MDBK ; read by: replicon ; measure: EC90 ; value: >100 µM
O=C(Nc1cc(S(=O)(=O)O)cc2cc(S(=O)(=O)O)cc(O)c12)c1ccccc1 ; organism: Herpes simplex virus ; cells: Human amnion AV3 cells ; read by: cytopathic effect ; measure: inhibition ; tested at: 10 µg/mL ; value: 33%
Fc1ccc2oc(=S)n(-c3ccc(C(F)(F)F)cc3)c(=S)c2c1 ; organism: Mycobacterium kansasii ; strain or isolate: My 235/80 ; conditions: 14 d ; measure: MIC ; value: 8 µM
CC(C)CS[C@@H]1C[C@H](n2cnc3c(N)ncnc32)[C@@H](O)[C@H]1O ; organism: Sindbis virus ; cells: HeLa ; read by: cytopathic effect ; measure: EC50 ; value: >80 µg/mL
Nc1cccc(S(=O)(=O)O)c1 ; organism: Herpes simplex virus ; cells: Human amnion AV3 cells ; read by: cytopathic effect ; measure: inhibition ; tested at: 10 µg/mL ; value: 17%
CC[C@H]1OC(=O)[C@H](C)[C@@H](OC2C[C@@](C)(OC)[C@@H](OC(=O)CCc3ccccc3)[C@H](C)O2)[C@H](C)[C@@H](O[C@@H]2O[C@H](C)C[C@H](N(C)C)[C@H]2O)C(C)(O)C[C@@H](C)/C(=N\OCCCOc2ccccc2)[C@H](C)[C@@H](O)[C@]1(C)O ; organism: Mycobacterium avium complex ; strain or isolate: 20096 (clarithromycin-resistant) ; measure: MIC ; value: 1.56 µg/mL
O=C(NCc1ccccc1)c1c2n(c(=O)n1-c1ccc(-n3cncn3)cc1)CCN(C(=O)c1ccc(Br)c(Cl)c1)C2 ; organism: Hepatitis B virus ; cells: HepG2.117 ; read by: PCR ; measure: EC50 ; value: 0.5–5 µM
CCCCCCC(=O)O[C@H]1[C@H](C)OC(O[C@H]2[C@H](C)[C@@H](O[C@@H]3O[C@H](C)C[C@H](N(C)C)[C@H]3O)C(C)(O)C[C@@H](C)/C(=N\OCCCOc3ccccc3)[C@H](C)[C@@H](O)[C@](C)(O)[C@@H](CC)OC(=O)[C@@H]2C)C[C@@]1(C)OC ; organism: Mycobacterium avium complex ; strain or isolate: 20039 (clarithromycin-susceptible) ; measure: MIC ; value: 1.56 µg/mL
C[C@@H](Oc1ccc([C@@H](C)NC(=O)c2c3n(c(=O)n2-c2ccc(OCC(F)(F)F)cc2)CCN(C(=O)c2ccc(Br)c(Cl)c2)C3)c(F)c1)C(N)=O ; organism: Hepatitis B virus ; cells: HepG2.117 ; read by: PCR ; measure: EC50 ; value: 0.5–5 µM
CC(C)(O)c1cn(-c2ccc([N+](=O)[O-])cc2)nn1 ; organism: Candida parapsilosis ; strain or isolate: URM 3627 ; read by: broth dilution ; measure: inhibition ; tested at: 2048 µg/mL ; value: 0%
NC(=S)Nc1cccc(OCCCCCOc2ccc(F)cc2F)c1 ; organism: Hepatitis C virus ; cells: Ava5-EG(delta4AB)SEAP ; read by: reporter gene / fluorescence ; measure: EC50 ; value: 0.001–1 µM
Cc1cc(-c2ccc(N=Nc3ccc4c(S(=O)(=O)O)cc(S(=O)(=O)O)c(N)c4c3O)c(C)c2)ccc1N=Nc1ccc2c(S(=O)(=O)O)cc(S(=O)(=O)O)c(N)c2c1O ; organism: Herpes simplex virus ; cells: Human amnion AV3 cells ; read by: cytopathic effect ; measure: inhibition ; tested at: 50 µg/mL ; value: 90%
OC[C@H]1O[C@@H](n2cnc3c(SCc4ccc(Cl)cc4Cl)ncnc32)[C@H](O)[C@@H]1O ; organism: Toxoplasma gondii ; strain or isolate: RH adenosine kinase-deficient ; measure: inhibition ; tested at: 5 µM ; value: 0%
CCC(CC)[C@H](NC(C)=O)[C@@H]1C[C@@H](C(=O)O)C[C@H]1N=C(N)N ; organism: Influenza A virus ; strain or isolate: H3N2 A/X-31 ; cells: MDCK ; measure: EC50 ; value: <0.01 µM
Cc1cc(CCCOc2c(C)cc(-c3noc(C(F)(F)F)n3)cc2C)on1 ; organism: Rhinovirus ; strain or isolate: Isolate 43 ; cells: OHIO HELA-I ; read by: cytopathic effect / visual reading ; measure: EC50 ; value: 0.05 µg/mL
CCNC(=S)Nc1ccc2c(c1)Cc1cc(Br)ccc1-2 ; organism: Hepatitis C virus ; cells: Ava5-EG(delta4AB)SEAP ; read by: reporter gene / fluorescence ; measure: EC50 ; value: 0.001–1 µM
O=C(NC(=O)c1ccccc1O)c1cccc(CCl)c1 ; organism: Toxoplasma gondii ; cells: Human foreskin fibroblasts ; measure: MIC50 ; value: >1 µM
Nc1ccc2cc([N+](=O)[O-])cc(S(=O)(=O)[O-])c2c1 ; organism: Rhinovirus ; cells: Human embryonic lung cells ; read by: cytopathic effect ; measure: inhibition ; tested at: 5 µg/mL ; value: 30%